Measured values from several laboratories, pooled; numbers as filed in NIAID ChemDB.

Shared fields: growth or infection tests; species: Rhinovirus

Blank or dashed fields: not listed here.

structure	dose	method	endpoint	cell line	strain or isolate	result
CN(C)c1nc(C(F)(F)F)nc2c1ncn2Cc1ccccc1	-	plaque count	EC50	M-HELA	Serotype 5	>8 µM
Cc1cc(CCCCCOc2cc(Cl)c(-c3nnc(C)o3)c(Cl)c2)on1	-	-	MIC80	-	Serotype 86	0.57 µg/mL
CN(C)c1nc(C(F)(F)F)nc2c1ncn2Cc1ccc(Cl)cc1Cl	-	plaque count	EC50	M-HELA	Serotype 13	>8 µM
Cc1ccc(C(=O)CCCCOc2ccc(C3=NCCO3)cc2)cc1	-	-	MIC80	-	serotype 1A 1B 2 6 14 15 21 22 25 29 30 41 42 45 59 63 67 70 72 86 89	>296 µM
Cc1cc(CCCCCOc2ccc(C3=NCCO3)c(Cl)c2)on1	-	-	MIC	-	TYPE 14	0.3 µM
CCOC(=O)c1cc(Cl)c(OCCCCC(=O)c2ccc(Cl)cc2)c(Cl)c1	-	-	MIC80	-	serotype 1A 1B 2 6 14 15 21 22 25 29 30 41 42 45 59 63 67 70 72 86 89	>102 µM
Cc1cc(CCCCCCCOc2ccc(C3=NC(C)(C)CO3)cc2)on1	-	-	MIC	-	TYPE 2	1.5 µM
Cc1cc(CCCOc2c(C)cc(-c3noc(C(F)(F)F)n3)cc2C)on1	-	cytopathic effect / visual reading	EC50	OHIO HELA-I	Isolate 24	0.09 µg/mL
O=P1(O)OCC2O[C@@H](n3cnc4c(=S)nc[nH]c43)[C@H](O)C2O1	-	-	MIC	-	TYPE 13	320 µg/mL
NS(=O)(=O)O	5 µg/mL	cytopathic effect	inhibition	Human embryonic lung cells	-	0%
CCSc1ncnc2c1ncn2[C@@H]1OC2COP(=O)(O)OC2[C@H]1O	-	-	MIC	-	TYPE 1A	1–3.2 µg/mL
Nc1nc2c(ccn2[C@@H]2C[C@H](CO)[C@H](O)[C@@H]2O)c(=O)[nH]1	-	-	MIC	-	TYPE 31	>100 µg/mL
Cc1ccc(Cn2cnc3c(N(C)C)nc(C(F)(F)F)nc32)c(C)c1	-	plaque count	EC50	M-HELA	Serotype 29	>8 µM
N#CCCCNC(=O)C1CCC(N)=N1	-	-	MIC	-	Serotype 2	>100 µg/mL
Cc1cc(CCCCCOc2cc(Cl)c(-c3nnco3)c(Cl)c2)on1	-	-	MIC80	-	Serotype 1A	1.45 µg/mL
Cc1cc(-c2ccc(N=Nc3c(S(=O)(=O)O)cc4cc(S(=O)(=O)O)cc(N)c4c3O)c(C)c2)ccc1N=Nc1c(S(=O)(=O)O)cc2cc(S(=O)(=O)O)cc(N)c2c1O	50 µg/mL	cytopathic effect	inhibition	Human amnion AV3 cells	-	0%
Cc1cc(CCCCCOc2c(Cl)cc(C3=NCCO3)cc2Cl)on1	-	plaque count	EC50	HeLa	ATCC39	0.2 µg/mL
CN(C)c1nc(C(F)(F)F)nc2c1ncn2Cc1ccc(Cl)cc1	-	plaque count	EC50	M-HELA	TYPE 1B	0.03 µM
CN=C1CCC(C(=O)NCCC#N)N1	-	-	MIC	-	Serotype 2	>100 µg/mL
O=C(CCCCOc1ccc(C2=NCCO2)cc1)c1ccccc1	-	-	MIC80	-	serotype 1A 1B 2 6 14 15 21 22 25 29 30 41 42 45 59 63 67 70 72 86 89	>51 µM
CCOC(=O)c1ccc(OCCC2CCN(c3ccc(C)nn3)CC2)cc1	-	neutral red	EC50	KB	FO2-2513 (ICAM-1 receptor group 69)	0.136 µM
N#CCNC(=O)C1CCC(N)=N1	-	-	MIC	-	Serotype 2	>100 µg/mL
O=C(Nc1ccc(S(=O)(=O)[O-])c2cccc(S(=O)(=O)[O-])c12)c1ccccc1	10 µg/mL	cytopathic effect	inhibition	Human amnion AV3 cells	-	0%
COc1ccc(Cn2cnc3c(N(C)C)nc(C(F)(F)F)nc32)cc1C	8 µM	plaque count	inhibition	M-HELA	Serotype 18	35%
CN=C1CCC(C(=O)NCCC(=N)N)N1	-	-	MIC	-	Serotype 2	>100 µg/mL
Fc1cccc(Cn2cnc3c(Nc4cccc(F)c4)nc(C(F)(F)F)nc32)c1	-	plaque count	EC50	M-HELA	Serotype 41	5.6 µM
O=S(=O)(O)c1ccc2cc(O)c(S(=O)(=O)O)cc2c1	10 µg/mL	cytopathic effect	inhibition	Human amnion AV3 cells	-	0%
CC(=O)Nc1ccc(Cn2cnc3c(Nc4cccc(F)c4)nc(C(F)(F)F)nc32)cc1	-	plaque count	EC50	M-HELA	Serotype 4	45 µM
Cc1ccccc1Cn1cnc2c(N(C)C)nc(C(F)(F)F)nc21	-	plaque count	EC50	M-HELA	Serotype 13	>8 µM
N#Cc1ccc(OCCCCC(=O)c2ccc(Cl)cc2)cc1	-	-	MIC80	-	serotype 1A 1B 2 6 14 15 21 22 25 29 30 41 42 45 59 63 67 70 72 86 89	>319 µM
Cc1cc(Cn2cnc3c(N(C)C)nc(C(F)(F)F)nc32)ccc1Cl	8 µM	plaque count	inhibition	M-HELA	Serotype 3	44%
N=C(N)CNC(=O)C1CCC(N)=N1	-	-	MIC	-	Serotype 2	50 µg/mL

The first 3 rows once more:

| structure | dose | method | endpoint | cell line | strain or isolate | result |
|---|---|---|---|---|---|---|
| CN(C)c1nc(C(F)(F)F)nc2c1ncn2Cc1ccccc1 | - | plaque count | EC50 | M-HELA | Serotype 5 | >8 µM |
| Cc1cc(CCCCCOc2cc(Cl)c(-c3nnc(C)o3)c(Cl)c2)on1 | - | - | MIC80 | - | Serotype 86 | 0.57 µg/mL |
| CN(C)c1nc(C(F)(F)F)nc2c1ncn2Cc1ccc(Cl)cc1Cl | - | plaque count | EC50 | M-HELA | Serotype 13 | >8 µM |

A number after MIC or MFC names an inhibition level or a share of isolates. Inhibition is in % at the dose shown (toxicity tests: loss of growth or viability). Two numbers with a dash give a range or band. Conditions beyond the fields shown may differ between rows. ECn is the concentration giving n% inhibition of infection, replication or growth.